Anti-infective test results gathered from many reports (values: NIAID ChemDB through PubChem).

Common to all: toxicity to cultured cells; cell line: MT-2; endpoint: CC50

CCn is the concentration with n% toxicity to the cells.

Cc1nc2sc3c(c2c(-c2ccc4cn[nH]c4c2)c1C(OC(C)(C)C)C(=O)O)CCCC3 ; value: >20 µM
COc1ccc(N(C)C(=O)[C@H](Cc2ccccc2)NC(=O)NS(=O)(=O)N[C@@H](Cc2ccccc2)c2nc(C)no2)cc1 ; read by: XTT ; value: 100 µM
COc1ccc(/C=C2\OC(=O)c3cc(Cl)c(Cl)cc32)cc1 ; read by: propidium iodide ; value: >155 µM
COc1ccc(-n2ccnc2[C@H](Cc2ccccc2)NC(=O)CN2c3ccccc3N(CC(=O)N[C@@H](Cc3ccccc3)c3nccn3-c3ccc(OC)cc3)S2(=O)=O)cc1 ; read by: XTT ; value: 100 µM
Cc1ccc2c(c1)/C(=C/c1ccccc1Cl)OC2=O ; read by: propidium iodide ; value: >185 µM
Cc1nc2sc3c(c2c(-c2ccc4c(cnn4C)c2)c1C(OC(C)(C)C)C(=O)O)CCCC3 ; value: >20 µM
Cc1ccc2c(=O)[nH]nc(Cc3ccc(Cl)c(Cl)c3)c2c1 ; read by: propidium iodide ; value: 64.7 µM
Cc1nc2sc3c(c2c(-c2ccc(Cl)cc2F)c1[C@H](OC(C)(C)C)C(=O)O)CCCC3 ; value: >20 µM
CN(C(=O)[C@H](Cc1ccccc1)NC(=O)NS(=O)(=O)N[C@@H](Cc1ccccc1)C(=O)N(C)c1ccc2scnc2c1)c1ccc2scnc2c1 ; read by: XTT ; value: 100 µM
CC(=O)OCCc1c(C(F)(F)F)nn(CC(=O)N[C@@H](Cc2ccccc2)C(=O)N(C)c2ccc3c(c2)OCO3)c1C ; read by: ATP ; value: >20 µM
O=C(/C=C/c1cc(O)c(O)c(O)c1)NCCCC[C@H](NC(=O)/C=C/c1cc(O)c(O)c(O)c1)C(=O)O ; read by: neutral red ; value: >39 µM
O=c1[nH]nc(Cc2ccc3c(c2)OCO3)c2ccccc12 ; read by: propidium iodide ; value: >178 µM
Cc1nc2sc3c(c2c(-c2cccc4c2cnn4C)c1C(OC(C)(C)C)C(=O)O)CCCC3 ; value: >20 µM
O=C(NC(CNC(=O)c1ccc(O)c(O)c1O)C(=O)O)c1cc(O)c(O)c(O)c1 ; read by: neutral red ; value: >32 µM
Cc1ccc2c(=O)n(C)nc(Cc3ccc(Cl)cc3)c2c1 ; read by: propidium iodide ; value: 94.6 µM
COC(=O)[C@H](CCCCNC(=O)/C=C/c1cc(OC)c(OC)c(OC)c1)NC(=O)/C=C/c1cc(OC)c(OC)c(OC)c1 ; read by: neutral red ; value: >104 µM
Cc1c(CCO)c(C2CC2)nn1CC(=O)N[C@@H](Cc1ccccc1)C(=O)N(C)c1cccc2ncccc12 ; read by: ATP ; value: >20 µM
COC(=O)C(CCNC(=O)c1ccc(O)c(O)c1)NC(=O)c1ccc(O)c(O)c1 ; read by: neutral red ; value: >86 µM
CN(C(=O)[C@H](Cc1ccccc1)NC(=O)Cc1cccc(CCO)c1)c1ccc2c(c1)OCO2 ; read by: ATP ; value: >20 µM
CN(C(=O)[C@H](Cc1cc(F)cc(F)c1)NC(=O)c1ccc(F)c(C(=O)N[C@@H](Cc2cc(F)cc(F)c2)C(=O)N(C)c2ccc3scnc3c2)c1)c1ccc2scnc2c1 ; read by: XTT ; value: 100 µM
Cc1c(CC(=O)N[C@@H](Cc2ccccc2)C(=O)N(C)c2ccc3c(c2)OCO3)c(C(C)C)nn1CCO ; read by: ATP ; value: >20 µM
CCOC(C(=O)O)c1c(C)nc2sc3c(c2c1-c1ccc2c(cnn2C)c1)CCCC3 ; value: >20 µM
CCOC(=O)Cc1c(C)nn(CC(=O)N[C@@H](Cc2ccccc2)C(=O)N(C)c2ccc3c(c2)OCO3)c1C(C)C ; read by: ATP ; value: >20 µM
O=C(NCCCC(NC(=O)c1ccc(O)c(O)c1)C(=O)O)c1ccc(O)c(O)c1 ; read by: neutral red ; value: >17 µM
Cc1nn(CC(=O)N[C@@H](Cc2ccccc2)C(=O)N(C)c2ccc3c(c2)OCO3)c(C(C)C)c1CC(=O)O ; read by: ATP ; value: >20 µM
C=CCN(C(=O)[C@H](Cc1cc(F)cc(F)c1)NC(=O)NS(=O)(=O)N[C@@H](Cc1cc(F)cc(F)c1)C(=O)N(CC=C)c1ccc2nccnc2c1)c1ccc2nccnc2c1 ; read by: XTT ; value: 100 µM
Cc1c(CCO)c(CC(C)C)nn1CC(=O)N[C@@H](Cc1ccccc1)C(=O)N(C)c1ccc2c(c1)OCO2 ; read by: ATP ; value: >20 µM
C=CCn1nc(Cc2ccc(Cl)cc2)c2ccccc2c1=O ; read by: propidium iodide ; value: >161 µM
C=CCN(C(=O)[C@H](Cc1cc(F)cc(F)c1)NC(=O)c1ccc(F)c(C(=O)N[C@@H](Cc2cc(F)cc(F)c2)C(=O)N(CC=C)c2ccc(OC)cc2)c1)c1ccc(OC)cc1 ; read by: XTT ; value: 33.3 µM
Cc1cc(C(F)(F)F)nn1CC(=O)N[C@@H](Cc1ccccc1)C(=O)N(C)c1ccc2c(c1)OCO2 ; read by: ATP ; value: >20 µM

A second listing of 4 rows from above:

{"compound": "C=CCN(C(=O)[C@H](Cc1cc(F)cc(F)c1)NC(=O)c1ccc(F)c(C(=O)N[C@@H](Cc2cc(F)cc(F)c2)C(=O)N(CC=C)c2ccc(OC)cc2)c1)c1ccc(OC)cc1", "read by": "XTT", "value": "33.3 µM"}
{"compound": "Cc1nc2sc3c(c2c(-c2cccc4c2cnn4C)c1C(OC(C)(C)C)C(=O)O)CCCC3", "value": ">20 µM"}
{"compound": "Cc1nn(CC(=O)N[C@@H](Cc2ccccc2)C(=O)N(C)c2ccc3c(c2)OCO3)c(C(C)C)c1CC(=O)O", "read by": "ATP", "value": ">20 µM"}
{"compound": "Cc1ccc2c(c1)/C(=C/c1ccccc1Cl)OC2=O", "read by": "propidium iodide", "value": ">185 µM"}

Rows are shuffled and stem from different studies.